Data as given in patent publication US11160869B2 (priority 2019, dated 2021).

Experiment: Purification with and without sulfitolysis: SEC-HPLC forms, yield and dimer recovery after Capto Q
Description: Refolding in both processes was carried out at 4° C. The refolding solution used in both processes contained 1 mM reduced glutathione, 0.5 mM oxidized glutathione, 1M Arginine-HCl, 250 mM sucrose, 100 mM Tris pH 8.5 at 4° C., and 2 mM EDTA.

B1: IL-10 delivery construct: recombinant homodimeric fusion protein: N-terminal methionine, cholix386 domain, polyGlySer spacer, recombinant human IL-10 (protein)
chain: MVEEALNIFDECRSPCSLTPEPGKPIQSKLSIPSDVVLDEGVLYYSMTINDEQNDIKDEDKGESIITIGEFATVRATRHYVNQDAPFGVIHLDITTENGTKTYSYNRKEGEFAINWLVPIGEDSPASIKISVDELDQQRNIIEVPKLYSIDLDNQTLEQWKTQGNVSFSVTRPEHNIAISWPSVSYKAAQKEGSRHKRWAHWHTGLALCWLVPMDAIYNYITQQNCTLGDNWFGGSYETVAGTPKVITVKQGIEQKPVEQRIHFSKGNAMSALAAHRVCGVPLETLARSRKPRDLTDDLSCAYQAQNIVSLFVATRILFSHLDSVFTLNLDEQEPEVAERLSDLRRINENNPGMVTQVLTVARQIYNDYVTHHPGLTPEQTSAGAQAGGGGSGGGGSGGGGSPGQGTQSENSCTHFPGNLPNMLRDLRDAFSRVKTFFQMKDQLDNLLLKESLLEDFKGYLGCQALSEMIQFYLEEVMPQAENQDPDIKAHVNSLGENLKTLRLRLRRCHRFLPCENKSKAVEQVKNAFNKLQEKGIYKAMSEFDIFINYIEAYMTMKIRN
modifications: homodimer
Dimer % (No Sulfitolysis of SIB (2x UF/DF at 4° C.), SEC-HPLC before AEX): 27%
Dimer % (No Sulfitolysis of SIB (2x UF/DF for 66 h RT), SEC-HPLC before AEX): 22%
Dimer content in Capto Q Load (No Sulfitolysis of SIB (97 mL Capto Q)): 25%
Dimer content in Capto Q Load (Sulfitolysis of SIB (97 mL Capto Q)): 16.5%
Dimer % (Sulfitolysis of SIB (TFF-2 for 20 h at RT), SEC-HPLC after UF/DF, before AEX): 17%
Dimer content in Capto Q Load (Sulfitolysis of SIB (average of 3)): 20%
